Anti-infective test results gathered from many reports (values: NIAID ChemDB through PubChem).

Common to all: growth or infection tests; organism: HIV-1; read by: p24 / ELISA; measure: EC50

Blank or dashed fields: not listed here. a–b is a range or a potency band. ECn: concentration that inhibits the pathogen or its effect by n%. Conditions beyond the fields shown may differ between rows.

CN[C@@H]1[C@H](O[C@@H]2OC[C@@H](O)[C@H](O)[C@H]2O)[C@@H](O)[C@H](O[C@H]2c3cc(C)c(C(=O)N[C@H](C)C(=O)O)c(O)c3-c3c(cc4c(c3O)C(=O)c3cc(OC)cc(O)c3C4=O)[C@@H]2O)O[C@@H]1C ; cells: PBMC ; strain: Clade D UG270 (R4-tropic) ; result: 3.7 µM
COP(=O)(c1cc(C)cc(CCC#N)c1)c1c(C(N)=O)[nH]c2ccc(Cl)c(F)c12 ; cells: MT-4 ; changes: K103N/Y181C ; strain: NL4-3 ; result: 0.0028 µM
CC1([C@@H]2CC[C@]3(NC(=O)N4CCC[C@H]4CN4CCCC4)CC[C@]4(C)[C@H](CC[C@@H]5[C@@]6(C)CC=C(c7ccc(C(=O)O)cc7)C(C)(C)[C@@H]6CC[C@]54C)[C@@H]23)CC1 ; cells: MT-2 ; strain: 92HT599 ; result: ≤0.01 µM
Cc1cn([C@H]2C[C@H](N=[N+]=[N-])C(COC(=O)COC[C@H]3O[C@@H](O[C@@H]4OC[C@@H](O[C@H]5[C@@H](OS(=O)(=O)[O-])[C@@H](OS(=O)(=O)[O-])[C@H](O)O[C@@H]5CO)[C@H](O)[C@H]4O)[C@H](O)[C@@H](O)[C@@H]3O[C@@H]3O[C@H](COS(=O)(=O)[O-])C[C@H](O)[C@H]3OS(=O)(=O)[O-])O2)c(=O)[nH]c1=O ; cells: PBMC ; conditions: clinical isolate, multidrug-resistant ; strain: Clinical isolate ; result: 4.22 µg/mL
CCCCCCCCCCCCCCCCCCOCCOP(=O)(O)CO[C@H](CO)Cn1cnc2c(N)ncnc21 ; cells: MT-2 ; strain: LAI ; result: 0.0001 µM
CC(C)C1=C2[C@H]3CC[C@@H]4[C@@]5(C)CC[C@H](OC(=O)[C@H]6C[C@@H](C(=O)O)C6(C)C)C(C)(C)[C@@H]5CC[C@@]4(C)[C@]3(C)CC[C@@]2([C@@H](O)CNC(=O)C2CCC2)CC1=O ; cells: MT-2 ; strain: 92HT599 ; result: <1 µM
CCCCCCCCCCCCCCCCCCOCCOP(=O)([O-])CO[C@H](COC)Cn1cnc2c(N)ncnc21 ; cells: MT-2 ; strain: LAI ; result: 0.03 µM
COCCOCCN1CCN(C(=O)N[C@]23CC[C@@H](C4(C)CC4)[C@@H]2[C@H]2CC[C@@H]4[C@@]5(C)CC=C(c6ccc(C(=O)O)cc6)C(C)(C)[C@@H]5CC[C@@]4(C)[C@]2(C)CC3)CC1 ; cells: MT-2 ; strain: 92HT599 ; result: ≤0.01 µM
[2H]C(CCCCN)(CNC[C@H](O)[C@@]12CC[C@]3(C)[C@H](CC[C@@H]4[C@@]5(C)CC[C@H](OC(=O)[C@H]6C[C@@H](C(=O)O)C6(C)C)C(C)(C)[C@@H]5CC[C@]43C)C1=C(C(C)C)C(=O)C2)NC(=O)c1ccc(Cl)cc1 ; cells: MT-2 ; strain: 92HT599 ; result: <1 µM
CC1([C@@H]2CC[C@]3(NC(=O)N4CCC(CO)CC4)CC[C@]4(C)[C@H](CC[C@@H]5[C@@]6(C)CC=C(c7ccc(C(=O)O)cc7)C(C)(C)[C@@H]6CC[C@]54C)[C@@H]23)CC1 ; cells: MT-2 ; strain: 92HT599 ; result: ≤0.01 µM
Cc1cc(CNC[C@H](O)[C@@]23CC[C@]4(C)[C@H](CC[C@@H]5[C@@]6(C)CC[C@H](OC(=O)[C@H]7C[C@@H](C(=O)O)C7(C)C)C(C)(C)[C@@H]6CC[C@]54C)C2=C(C(C)C)C(=O)C3)n[nH]1 ; cells: MT-2 ; strain: 92HT599 ; result: <1 µM
CCCCCCCCCCCCCCCCCCOCCOP(=O)(O)CO[C@H](CO)Cn1ccc(N)nc1=O ; cells: PBMC ; changes: M41L T69SS L74V M184V L210W ; strain: NRTI-MDR ; result: 0.083 µM
CC(C)C1=C2[C@H]3CC[C@@H]4[C@@]5(C)CC[C@H](OC(=O)[C@H]6C[C@@H](C(=O)O)C6(C)C)C(C)(C)[C@@H]5CC[C@@]4(C)[C@]3(C)CC[C@@]2([C@@H](O)CNC(=O)c2ccc3nc[nH]c3c2)CC1=O ; cells: MT-2 ; strain: 92HT599 ; result: <1 µM
COCCOCCOC1CCN(C(=O)N[C@]23CC[C@@H](C4(C)CC4)[C@@H]2[C@H]2CC[C@@H]4[C@@]5(C)CC=C(c6ccc(C(=O)O)cc6)C(C)(C)[C@@H]5CC[C@@]4(C)[C@]2(C)CC3)CC1 ; cells: MT-2 ; strain: 92HT599 ; result: ≤0.01 µM
CC(C)C1=C2[C@H]3CC[C@@H]4[C@@]5(C)CC[C@H](OC(=O)[C@H]6C[C@@H](C(=O)O)C6(C)C)C(C)(C)[C@@H]5CC[C@@]4(C)[C@]3(C)CC[C@@]2([C@@H](O)CNC(=O)c2ccc(Cl)cc2OCCN2CCCC2)CC1=O ; cells: MT-2 ; strain: 92HT599 ; result: <1 µM
C=C(C)[C@@H]1CC[C@]2(NC(=O)N3CCC(OCCOCCOC)CC3)CC[C@]3(C)[C@H](CC[C@@H]4[C@@]5(C)CC=C(c6ccc(C(=O)O)cc6)C(C)(C)[C@@H]5CC[C@]43C)[C@@H]12 ; cells: MT-2 ; strain: 92HT599 ; result: ≤0.01 µM
CC(C)C1=C2[C@H]3CC[C@@H]4[C@@]5(C)CC[C@H](OC(=O)[C@H]6C[C@@H](C(=O)O)C6(C)C)C(C)(C)[C@@H]5CC[C@@]4(C)[C@]3(C)CC[C@@]2([C@@H](O)CNCc2ccc(Cl)cc2OCCN2CCCCC2)CC1=O ; cells: MT-2 ; strain: 92HT599 ; result: <1 µM
CC1([C@@H]2CC[C@]3(NC(=O)N4CCC[C@H]4c4ncc(-c5ccccc5)[nH]4)CC[C@]4(C)[C@H](CC[C@@H]5[C@@]6(C)CC=C(c7ccc(C(=O)O)cc7)C(C)(C)[C@@H]6CC[C@]54C)[C@@H]23)CC1 ; cells: MT-2 ; strain: 92HT599 ; result: 0.01001–0.05 µM
CC(C)(C)C1=NC(c2ccccc2)(C(F)(F)F)NC(=O)N1 ; cells: PBMC ; strain: BaL ; result: 0.1323 µM
CC(C)C1=C2[C@H]3CC[C@@H]4[C@@]5(C)CC[C@H](OC(=O)[C@H]6C[C@@H](C(=O)O)C6(C)C)C(C)(C)[C@@H]5CC[C@@]4(C)[C@]3(C)CC[C@@]2([C@@H](O)CNC(=O)c2ccc(N3CCCCC3)cc2)CC1=O ; cells: MT-2 ; strain: 92HT599 ; result: <1 µM
CNC(=O)N[C@]12CC[C@@H](C3(C)CC3)[C@@H]1[C@H]1CC[C@@H]3[C@@]4(C)CC=C(c5ccc(C(=O)O)cc5)C(C)(C)[C@@H]4CC[C@@]3(C)[C@]1(C)CC2 ; cells: MT-2 ; strain: 92HT599 ; result: ≤0.01 µM

Repeating the final 2 entries:

smiles,cells,changes,conditions,strain,result
CC(C)C1=C2[C@H]3CC[C@@H]4[C@@]5(C)CC[C@H](OC(=O)[C@H]6C[C@@H](C(=O)O)C6(C)C)C(C)(C)[C@@H]5CC[C@@]4(C)[C@]3(C)CC[C@@]2([C@@H](O)CNC(=O)c2ccc(N3CCCCC3)cc2)CC1=O,MT-2,,,92HT599,<1 µM
CNC(=O)N[C@]12CC[C@@H](C3(C)CC3)[C@@H]1[C@H]1CC[C@@H]3[C@@]4(C)CC=C(c5ccc(C(=O)O)cc5)C(C)(C)[C@@H]4CC[C@@]3(C)[C@]1(C)CC2,MT-2,,,92HT599,≤0.01 µM